Experimental findings from US20100104550A1 are described below.

This test has as its target BiPD416, murine BiP with L416 to D substitution (pBC-BiPD416 in E. coli JM109; pEFIRES-P-BiPD416 in Vero cells) (murine) (UniProt P20029). The experiment in a line: cell-based or functional assay.

Substance “Subtilase cytotoxin (SubAB) holotoxin (from UniProt Q6EZC3 24-141)” displayed a cytotoxicity endpoint titre on Vero cells transfected with the BiPD416 construct (CD50/µg toxin) of less than 50.
